Tests used:
[1] = test system: in vitro generated exhausted human T-cells; conditions: exhausted T-cells stimulated with SEB and autologous myeloid cells; for CTLA4 CD4, fold change over baseline: CD4 T-cells; for CTLA4 CD8, fold change over baseline: CD8 T-cells
[2] = test system: in vitro generated exhausted human T-cells; assay: Exhausted T-cell activation assessed by cytokine secretion (autologous SEB/myeloid cell model); conditions: exhausted T-cells stimulated with SEB and autologous myeloid cells, 3 days

Row | SMILES | CTLA4 CD4, fold change over baseline [1] | CTLA4 CD8, fold change over baseline [1] | Cytokines GM-CSF, fold change over baseline [2] | Cytokines IFNγ, fold change over baseline [2] | Cytokines IL-2, fold change over baseline [2]
1 | C[C@H](Cc1nncn1C)c1ccnc(NC(=O)c2cccc(C(F)(F)F)n2)c1 [Compound 302, (R)-N-(4-(1-(4-methyl-4H-1,2,4-triazol-3-yl)propan-2-yl)pyridin-2-yl)-6-(trifluoromethyl)picolinamide] | A (A indicates ≤1.40) | A (A indicates ≤1.40) | A (A indicates ≤1.40) | A (A indicates ≤1.40) | A (A indicates ≤2.50)
2 | Cn1cnnc1C(F)(F)[C@](C)(F)c1cccc(N2Cc3c(cc(C(=O)N4CC[C@H](O)C4)cc3C(F)(F)F)C2=O)c1 [Compound 438, 6-((S)-3-hydroxypyrrolidine-1-carbonyl)-2-(3-((R)-1,1,2-trifluoro-1-(4-methyl-4H-1,2,4-triazol-3-yl)propan-2-yl)phenyl)-4-(trifluoromethyl)isoindolin-1-one] | A (A indicates ≤1.40) | A (A indicates ≤1.40) | A (A indicates ≤1.40) | A (A indicates ≤1.40) | B (B indicates 2.51-3.00)
3 | CNCc1ccc(C(=O)Nc2cccc([C@H](C)Cc3nncn3C)c2)nc1C1CC1 [Compound 376, (R)-6-cyclopropyl-N-(3-(1-(4-methyl-4H-1,2,4-triazol-3-yl)propan-2-yl)phenyl)-5-((methylamino)methyl)picolinamide] | C (C indicates >1.61) | C (C indicates >1.61) | A (A indicates ≤1.40) | A (A indicates ≤1.40) | B (B indicates 2.51-3.00)
4 | Cc1cc2c(c(C3CC3)n1)CN(c1cccc([C@H](C)Cc3nncn3C)c1)C2=O [Compound 372, 4-cyclopropyl-6-methyl-2-{3-[(2R)-1-(4-methyl-4H-1,2,4-triazol-3-yl)propan-2-yl]phenyl}-1H,2H,3H-pyrrolo[3,4-c]pyridin-1-one] | A (A indicates ≤1.40) | A (A indicates ≤1.40) | A (A indicates ≤1.40) | A (A indicates ≤1.40) | A (A indicates ≤2.50)
5 | Cn1cnnc1CC1(c2cccc(N3Cc4c(cc(CN5CCC6(CC6)C5)cc4C(F)(F)F)C3=O)c2)COC1 [Compound 520, 6-((5-azaspiro[2.4]heptan-5-yl)methyl)-2-(3-(3-((4-methyl-4H-1,2,4-triazol-3-yl)methyl)oxetan-3-yl)phenyl)-4-(trifluoromethyl)isoindolin-1-one] | C (C indicates >1.61) | C (C indicates >1.61) | B (B indicates 1.41-1.60) | A (A indicates ≤1.40) | B (B indicates 2.51-3.00)
6 | Cn1cnnc1[C@@H]1C[C@@H]1c1cccc(N2Cc3c(ccnc3C(F)(F)F)C2=O)c1 [Compound 369, 2-{3-[(1S,2R)-2-(4-methyl-4H-1,2,4-triazol-3-yl)cyclopropyl]phenyl}-4-(trifluoromethyl)-1H,2H,3H-pyrrolo[3,4-c]pyridin-1-one] | A (A indicates ≤1.40) | A (A indicates ≤1.40) | A (A indicates ≤1.40) | A (A indicates ≤1.40) | A (A indicates ≤2.50)
7 | C[C@H](Cc1nncn1C)c1cccc(N2Cc3c(cc(CN4CC[C@H](F)C4)cc3C(F)(F)F)C2=O)c1 [Compound 399, 6-(((S)-3-fluoropyrrolidin-1-yl)methyl)-2-(3-((R)-1-(4-methyl-4H-1,2,4-triazol-3-yl)propan-2-yl)phenyl)-4-(trifluoromethyl)isoindolin-1-one] | C (C indicates >1.61) | C (C indicates >1.61) | C (C indicates >1.61) | C (C indicates >1.61) | C (C indicates >3.01)
8 | C[C@H](Cc1nncn1C)c1cccc(N2Cc3c(cc(CN4CC(C)(O)C4)cc3C(F)(F)F)C2=O)c1 [Compound 397] | C (C indicates >1.61) | C (C indicates >1.61) | B (B indicates 1.41-1.60) | C (C indicates >1.61) | B (B indicates 2.51-3.00)
9 | Cn1cnnc1CC1(c2cccc(NC(=O)c3cc(CN4CCC5(CC5)C4)cc(C4CC4)n3)c2)COC1 [Compound 519, 4-((5-azaspiro[2.4]heptan-5-yl)methyl)-6-cyclopropyl-N-(3-(3-((4-methyl-4H-1,2,4-triazol-3-yl)methyl)oxetan-3-yl)phenyl)picolinamide] | C (C indicates >1.61) | C (C indicates >1.61) | C (C indicates >1.61) | C (C indicates >1.61) | B (B indicates 2.51-3.00)
10 | C[C@H](Cc1nncn1C)c1cccc(NC(=O)c2n[nH]c3c2CCC3)c1 [Compound 313, (R)-N-(3-(1-(4-Methyl-4H-1,2,4-triazol-3-yl)propan-2-yl)phenyl)-1,4,5,6-tetrahydrocyclopenta[c]pyrazole-3-carboxamide] | A (A indicates ≤1.40) | A (A indicates ≤1.40) | A (A indicates ≤1.40) | A (A indicates ≤1.40) | A (A indicates ≤2.50)
11 | C[C@H](Cc1nncn1C)c1cccc(NC(=O)c2cccc(CCO)n2)c1 [Compound 202, 6-(2-hydroxyethyl)-N-[3-[(2R)-1-(4-methyl-4H-1,2,4-triazol-3-yl)propan-2-yl]phenyl]pyridine-2-carboxamide] | A (A indicates ≤1.40) | A (A indicates ≤1.40) | A (A indicates ≤1.40) | A (A indicates ≤1.40) | A (A indicates ≤2.50)
12 | Cn1cnnc1CC1(c2cccc(NC(=O)c3nc4c(C(F)(F)F)cccc4[nH]3)c2)COC1 [Compound 335, N-(3-{3-[(4-methyl-1,2,4-triazol-3-yl)methyl]oxetan-3-yl}phenyl)-4-(trifluoromethyl)-1H-1,3-benzodiazole-2-carboxamide] | C (C indicates >1.61) | C (C indicates >1.61) | A (A indicates ≤1.40) | B (B indicates 1.41-1.60) | C (C indicates >3.01)
13 | C[C@H](c1cc2c(c(C(F)(F)F)c1)CN(c1cccc(C3(Cc4nncn4C)COC3)c1)C2=O)N1CC[C@H](F)C1 [Compound 413, 6-((R)-1-((S)-3-fluoropyrrolidin-1-yl)ethyl)-2-(3-(3-((4-methyl-4H-1,2,4-triazol-3-yl)methyl)oxetan-3-yl)phenyl)-4-(trifluoromethyl)isoindolin-1-one] | C (C indicates >1.61) | C (C indicates >1.61) | C (C indicates >1.61) | C (C indicates >1.61) | C (C indicates >3.01)
14 | C[C@H](Cc1nncn1C)c1cccc(NC(=O)c2cccc(C(F)(F)F)n2)c1 [Compound 183a, (R)-N-(3-(1-(4-methyl-4H-1,2,4-triazol-3-yl)propan-2-yl)phenyl)-6-(trifluoromethyl)picolinamide] | C (C indicates >1.61) | C (C indicates >1.61) | C (C indicates >1.61) | B (B indicates 1.41-1.60) | A (A indicates ≤2.50)
15 | Cn1cnnc1[C@@H]1C[C@@H]1c1cccc(N2Cc3c(cccc3C(F)(F)F)C2=O)c1 [Compound 282, 2-(3-((1S,2R)-2-(4-methyl-4H-1,2,4-triazol-3-yl)cyclopropyl)phenyl)-4-(trifluoromethyl)isoindolin-1-one] | A (A indicates ≤1.40) | A (A indicates ≤1.40) | A (A indicates ≤1.40) | B (B indicates 1.41-1.60) | B (B indicates 2.51-3.00)
16 | Cc1n[nH]c(C)c1-c1cc2c(c(C(F)(F)F)c1)CN(c1cccc(C3(Cc4nncn4C)COC3)c1)C2=O [Compound 385, 6-(3,5-dimethyl-1H-pyrazol-4-yl)-2-(3-{3-[(4-methyl-4H-1,2,4-triazol-3-yl)methyl]oxetan-3-yl}phenyl)-4-(trifluoromethyl)-2,3-dihydro-1H-isoindol-1-one] | C (C indicates >1.61) | C (C indicates >1.61) | A (A indicates ≤1.40) | B (B indicates 1.41-1.60) | A (A indicates ≤2.50)

From patent US20220324835A1 (Nurix Therapeutics, Inc., priority 2018, published 2022)
